Pooled drug test results. Numbers come from NIAID ChemDB, via PubChem.

Shared fields: growth or infection tests; species: Herpes simplex virus 1; read by: cytopathic effect; read-out: EC50

Conditions beyond the fields shown may differ between rows. ECn: concentration that inhibits the pathogen or its effect by n%. An empty or dashed field is not shown.

compound	strain or isolate	cell line	mutations	result
CC(=O)Nc1nc2c(CC(O)CO)ncn2c(=O)[nH]1	KOS	PRK	-	>200 µg/mL
CC(N=[N+]=[N-])c1cn([C@H]2C[C@H](O)[C@@H](CO)O2)c(=O)[nH]c1=O	E-377	HFF	-	>100 µM
Cc1cn([C@@H]2O[C@@H](CO)[C@H](O)[C@H]2O)c(=O)[nH]c1=O	F	VERO B	-	>1000 µM
Cc1cc([C@@H]2C[C@H](O)[C@@H](CO)O2)c(Cl)cc1F	VMW 1837	E6SM	-	>400 µg/mL
Nc1nc2c(ncn2COCCP(=O)(N2CCOCC2)N2CCOCC2)c(=O)[nH]1	L2/R	VERO E6	-	>500 µM
CCc1c(CN)c(CC)c(CN)c(CC)c1CN	TK- KOS ACVr	Human embryonic lung fibroblasts	-	>100 µM
CC=NC(=N)c1nc(-c2ccc(OC)cc2)n(Cc2ccccc2)n1	VMW 1837	E6SM	-	>40 µg/mL
Cc1nc(CC(O)CO)c2nc[nH]c(=O)n12	KOS	PRK	-	>400 µg/mL
Cc1ccc(S(=O)(=O)NNC(=O)c2ccccc2S(=O)(=O)NC(C)C)cc1	KOS	HEL	TK-deficient acyclovir-resistant	>100 µM
O=c1[nH]c(=O)n([C@H]2C[C@H](O)[C@@H](CO)O2)cc1Cc1ccccc1	KOS	PRK	-	120 µM
Nc1nc2c(nc(N3CCCCC3)n2COCCO)c(=O)[nH]1	-	PRK	-	70 µg/mL
C[C@H]1C/C=C/CC/C=C/C(=O)Cc2cccc(O)c2C(=O)O1	Strain F	VERO	-	>50 µM
CCc1cn([C@H]2C[C@H](O)[C@@H](CO)O2)c(=O)[nH]c1=O	McIntyre	PRK	-	1.6 µg/mL
CO[C@H]1[C@H](O)[C@H](n2ccc(N)nc2=O)O[C@@H]1CO	-	PRK	-	>200 µg/mL
Nc1nc(N)c2ncn(C[C@@H](CF)OCP(=O)(O)O)c2n1	KOS F McIntyre	E6SM	-	>600 µM
O=C(O)CP(=O)(O)O	-	WI-38	-	<100 µg/mL
Cc1cn([C@H]2CC[C@@H](OCC(=O)O)C2)c(=O)[nH]c1=O	KOS	HEL	-	>250 µM
CCc1c(CN[C@H]2CCCC[C@@H]2NCc2ccc[nH]2)c(CC)c(CN[C@H]2CCCC[C@@H]2NCc2ccc[nH]2)c(CC)c1CN[C@H]1CCCC[C@@H]1NCc1ccc[nH]1	KOS	Human embryonic lung fibroblasts	-	>0.8 µM
COC[C@H]1O[C@@H](n2ccc(N)nc2=O)[C@@H](O)[C@@H]1O	-	PRK	-	40 µg/mL
CC1(C)[C@@H](CCO)C[C@H]1n1cnc2c(N)nc(N)nc21	TK-/B2006	E6SM	-	>400 µg/mL
Cc1cn(COCCO)c(=O)[nH]c1=O	-	PRK	-	>400 µg/mL
C[C@H]1[C@H](O)[C@@H](CO)O[C@H]1n1cc(Br)c(N)nc1=O	A4-3	RPMI8226	-	>84.8 µg/mL
Nc1ncnc2c1ncn2C[C@@H](CO)OCP(=O)(O)O	B2006 (TK-)	ESM	-	2 µg/mL
Nc1ncc2ncn(C[C@@H](CO)OCP(=O)(O)O)c2n1	KOS F McIntyre	E6SM	-	13 µM
COC(C)c1cn([C@H]2C[C@H](O)[C@@H](CO)O2)c(=O)[nH]c1=O	E-377	HFF	-	0.6 µM
Cc1cn([C@@H]2O[C@H](CO)[C@@H](O)[C@@H]2O)c(=S)nc1N	KOS (TK+)	RPMI8226	-	92.2 µM
Nc1nc2c(nc(N)n2COCCO)c(=O)[nH]1	-	PRK	-	0.7 µg/mL
C=C(N=CC)c1nc(-c2ccccc2)n([C@@H]2O[C@H](CO)[C@@H](O)[C@H]2O)n1	KOS	E6SM	-	150 µg/mL
O=c1[nH]c(=O)n([C@H]2C[C@H](O)[C@@H](CO)O2)cc1I	F	PRK	-	0.1 µg/mL
Nc1nc2c(ncn2C[C@@H](CO)OCP(=O)(O)O)c(=O)[nH]1	KOS F McIntyre	E6SM	-	0.66 µM
Nc1nc(=O)n(COCCO)cc1[N+](=O)[O-]	-	PRK	-	>400 µg/mL
CCc1cn([C@@H]2O[C@H](CO)[C@@H](O)[C@@H]2O)c(=S)nc1N	KOS (TK+)	RPMI8226	-	15.4 µM
Nc1ccn(COCCO)c(=O)n1	-	PRK	-	70 µg/mL
Cc1nc(Cc2ccccc2)c2[nH]c(=S)[nH]c(=O)n12	KOS	PRK	-	150 µg/mL
CC1(C)[C@@H](CO)CC[C@@]1(C)Cn1ccc(=O)[nH]c1=O	KOS	E6SM	-	>400 µg/mL
CC1(C)[C@@H](CCO)C[C@H]1n1nnc2c(Cl)nc(N)nc21	TK-/VMW 1837	E6SM	-	>100 µg/mL
O=c1[nH]c(=S)n([C@@H]2O[C@H](CO)[C@@H](O)[C@@H]2O)cc1/C=C/c1ccccc1	KOS (TK+)	RPMI8226	-	>232.9 µM
Nc1nc2c(ncn2OCC2COP(=O)(O)CO2)c(=O)[nH]1	SC16	MRC-5	-	32 µg/mL
CCc1cn([C@H]2C[C@H](O)[C@@H](CO)O2)c(=S)nc1N	KOS (TK+)	RPMI8226	-	0.04 µM
CC(=O)c1ccc(NC(=O)CN2C(=O)c3ccccc3S2(=O)=O)cc1	KOS	HEL	-	>100 µM
C=C(C)C(O)Cc1c(O)c(C(C)=O)c(O)c(C(=O)CC(C)C)c1O	-	VERO	-	0.3 µM
CC=NC(=N)c1nc(-c2cccc(C)c2)n(Cc2ccccc2)n1	KOS	E6SM	-	>4 µg/mL
Cc1cn([C@@H]2OC[C@H](CO)[C@H]2N=[N+]=[N-])c(=O)[nH]c1=O	KOS TK- acyclovir-resistant	E6SM	-	240 µg/mL
O=c1[nH]c(=O)n([C@H]2C[C@H](O)[C@@H](CO)O2)cc1Br	-	Primary rabbit kidney cells	-	0.32 µM
C/C(=N/NC(N)=S)c1ccc(NC(=O)CN2C(=O)c3ccccc3S2(=O)=O)cc1	KOS	HEL	-	>100 µM
C[C@H]1C/C=C/CC/C=C/C(=O)Cc2c(Cl)c(O)cc(O)c2C(=O)O1	Strain F	VERO	-	1.5 µM
CC=NC(=N)c1nc(-c2ccc(OC)cc2)n(C/C=C/c2ccccc2)n1	KOS	E6SM	-	>10 µg/mL
CCCc1cn([C@H]2C[C@H](O)[C@@H](COP(=O)(O)O)O2)c(=O)[nH]c1=O	KOS	PRK	-	4 µg/mL
CC(C)NS(=O)(=O)c1ccccc1C(=O)NNC(=O)c1ccc(Cl)cc1	KOS	HEL	TK-deficient acyclovir-resistant	>100 µM
OC[C@H]1O[C@@H](c2cc(F)c(F)cc2F)C[C@@H]1O	KOS	E6SM	-	>400 µg/mL
CCc1cc(CC)c(CNCc2ccc[nH]2)c(CC)c1CNCc1ccc[nH]1	TK- KOS ACVr	Human embryonic lung fibroblasts	-	>0.8 µM
O=c1[nH]c(=S)n([C@@H]2O[C@H](CO)[C@@H](O)[C@@H]2O)cc1/C=C/Br	KOS (TK+)	RPMI8226	-	23.9 µM
CC(C)NS(=O)(=O)c1ccccc1C(=O)N/N=C/c1ccc(Br)cc1	KOS	HEL	-	>100 µM
Nc1nc(=O)c(/C=C/Br)cn1[C@H]1C[C@H](O)[C@@H](CO)O1	KOS	PRK	-	20 µg/mL
CC1(C)[C@@H](CCO)C[C@H]1n1cnc2c(N)ncnc21	TK-/B2006	E6SM	-	70 µg/mL
C[C@H]1C[C@H](O)C(Cl)/C=C\C=C\C(=O)Cc2c(Cl)c(O)cc(O)c2C(=O)O1	Strain F	VERO	-	>50 µM
Cc1cn([C@H]2C=C[C@@H](OC(C(=O)O)P(=O)(O)O)C2)c(=O)[nH]c1=O	KOS	HEL	TK-deficient acyclovir-resistant	>250 µM
Nc1ncnc2c1ncn2OCC(CO)OCP(=O)(O)O	SC16	MRC-5	-	>310 µg/mL
Nc1nc2c(ncn2C[C@H](CF)OCP(=O)(O)O)c(=O)[nH]1	KOS F McIntyre	E6SM	-	165 µM
CC1(C)[C@@H](CO)CC[C@@]1(C)Cn1cnc2c(Cl)ncnc21	KOS	E6SM	-	>400 µg/mL
OC[C@H]1O[C@@H](c2cc(Br)c(F)cc2F)C[C@@H]1O	KOS	E6SM	-	>400 µg/mL
CC1(C)[C@@H](CO)CC[C@@]1(C)Cn1cnc2c(=O)[nH]cnc21	KOS	E6SM	-	>400 µg/mL
CC1(C)[C@@H](CCO)C[C@H]1n1nnc2c(=O)[nH]cnc21	KOS	E6SM	-	>200 µg/mL
Cc1cn([C@H]2C[C@H](O)[C@@H](CO)O2)c(=S)nc1N	KOS (TK+)	RPMI8226	-	36.4 µM
Nc1ncnc2c1ncn2[C@@H]1O[C@@H](CO)[C@H](O)[C@H]1O	F	VERO B	-	>1000 µM
Nc1ncnc2c1ncn2[C@H]1OC[C@@H](CO)C1O	KOS TK- acyclovir-resistant	E6SM	-	240 µg/mL
Cc1ccc(CON2CNc3c(ncn3[C@@H]3O[C@H](CO)[C@@H](O)[C@H]3O)C2=N)cc1	Strain HF	KB	-	100 µg/mL
OC[C@H]1O[C@H](c2cc(F)c(F)cc2F)C[C@@H]1O	KOS	E6SM	-	>400 µg/mL
COC(=O)C(Cc1c[nH]c2ccccc12)NP(=O)(O)OCC1C/C1=C/n1cnc2c(N)ncnc21	-	HFF	-	>184 µM
Nc1ncnc2c1ncn2[C@H]1C[C@@H](O)[C@H](CO)O1	F	VERO B	-	>1000 µM
O=c1[nH]c(=O)n([C@H]2C[C@H](O)[C@@H](CO)O2)cc1I	-	Human skin fibroblasts	-	0.57 µM
CCc1cn([C@@H]2O[C@H](CO)[C@@H](O)[C@@H]2O)c(=S)[nH]c1=O	KOS (TK+)	RPMI8226	-	0.58 µM
Nc1ncc2ncn(C[C@H](CF)OCP(=O)(O)O)c2n1	KOS F McIntyre	E6SM	-	>600 µM
O=c1[nH]c(=O)n([C@H]2C[C@H](O)[C@@H](CO)O2)cc1/C=C/Br	KOS	PRK	-	0.02 µg/mL